Source: PMC4125235
For at least one entry, the source does not settle the construct or the ends of the probe. At least one result comes from cells or an extract, where the contact may be indirect. Tags and fusion partners may be left off the protein sequences shown.

Target: T1, IRF4 (UniProt Q64287)
T1 sequence (looked up, limits assumed): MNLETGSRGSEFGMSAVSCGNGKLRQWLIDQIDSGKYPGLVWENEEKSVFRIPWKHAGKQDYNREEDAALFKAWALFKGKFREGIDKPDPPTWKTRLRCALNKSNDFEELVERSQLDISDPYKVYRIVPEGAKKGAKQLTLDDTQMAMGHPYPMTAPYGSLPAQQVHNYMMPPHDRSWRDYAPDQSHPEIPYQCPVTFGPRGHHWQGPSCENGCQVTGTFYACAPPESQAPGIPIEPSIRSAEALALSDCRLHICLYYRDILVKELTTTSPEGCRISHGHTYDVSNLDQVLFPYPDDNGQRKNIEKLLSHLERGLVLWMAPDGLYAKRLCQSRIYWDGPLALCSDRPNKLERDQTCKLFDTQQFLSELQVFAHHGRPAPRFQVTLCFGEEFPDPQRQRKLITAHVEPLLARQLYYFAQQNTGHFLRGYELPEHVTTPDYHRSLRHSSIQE
Assay: EMSA supershift
Conditions: anti-IRF4 supershift, isotype control anti-pSTAT1, WT self-competition at 2x and 20x; protein in an extract; label: 32P (unlabeled when used as competitor)

“TTGGTGGTTTCACTTCTAAACA (double strand) [M1 promoter IRF4 site probe (WT)]”: binds.
